Compound potency records, mixed from different reports. Data source: NIAID ChemDB in PubChem.

Common to all: tests in culture; agent: HIV-1

An empty or dashed field is not shown. ECn: concentration that inhibits the pathogen or its effect by n%. Rows are shuffled and stem from different studies. a–b is a range or a potency band.

| structure | strain | read by | changes | cell line | conditions | measure | result |
|---|---|---|---|---|---|---|---|
| OCCN(CCO)CCOc1nc(-c2cccs2)cc(-c2cc3ccccc3s2)n1 | LAV-1 | RT activity | - | PBMC | - | EC50 | 1.5 µM |
| COc1ncc(OC)c2c(C(=O)C(=O)N3CCC(=C(C#N)c4nnc(-c5ccccc5)o4)CC3)c[nH]c12 | - | luciferase | - | HeLa | - | EC50 | >5 µM |
| CC(C)CN(C[C@@H](O)[C@H](Cc1ccccc1)NC(=O)O[C@H]1CO[C@H]2OCC[C@H]21)S(=O)(=O)c1ccc2nc(NC3CCN(C4CCCC4)CC3)sc2c1 | SF2 | p24 | - | PBMC | - | EC50 | 2.3 nM |
| COC[C@@H]1CC(NC(=O)[C@H](OCc2ccccc2)[C@H](O)[C@@H](O)[C@@H](OCc2ccccc2)C(=O)N[C@@H]2CO[C@H](COC)C2)CO1 | - | cytopathic effect / XTT | - | MT-4 | - | EC50 | >10 µM |
| Cc1ncnn1-c1cc(F)ccc1CNC(=O)c1nc2n(c(=O)c1O)CCOC21CCN(C(=O)OCc2ccccc2)CC1 | NL4-3 | luciferase / reporter gene | - | MT-2 | - | EC50 | 0.001–0.01 µM |
| CCCNc1nc(N)nc2c1ncn2[C@H]1C=C[C@@H](CO)C1 | - | - | - | CEM | - | EC50 | 6 µM |
| C/C(=N\NC(=O)CN1c2c(-c3ccccc3)n[nH]c2-c2ccccc2S1(=O)=O)c1sccc1Br | - | RT activity | - | PBMC | - | EC90 | >100 µM |
| CCOC[C@@H]1CC(NC(=O)[C@H](OCc2ccccc2)[C@H](O)[C@@H](O)[C@@H](OCc2ccccc2)C(=O)N[C@@H]2CO[C@H](COCC)C2)CO1 | - | cytopathic effect / XTT | - | MT-4 | - | EC50 | >10 µM |
| COc1cnc(-n2cnc(C)n2)c2[nH]cc(C(=O)C(=O)N3CCN(C(=O)c4ccccc4)CC3)c12 | NL4-3 | luciferase | M426R | U-87 | - | EC50 | 0.0011 µM |
| CC(C)C(O)[C@@H]1CC(NC(=O)[C@H](OCc2ccccc2)[C@H](O)[C@@H](O)[C@@H](OCc2ccccc2)C(=O)N[C@H]2c3ccccc3C[C@H]2O)CO1 | - | cytopathic effect / XTT | - | MT-4 | - | EC50 | 3.75 µM |
| CN(C)C(=O)C(=O)N1CCC2(C1)OCCn1c2nc(C(=O)NCc2ccc(F)cc2)c(O)c1=O | NL4-3 | luciferase / reporter gene | - | MT-2 | - | EC50 | 0.01–0.1 µM |
| COc1cnc(-c2cnccn2)c2[nH]cc(C(=O)C(=O)N3CCC(=C(c4ccccc4)c4nnc(C)o4)CC3)c12 | - | luciferase | - | HeLa | - | EC50 | <1 µM |
| C/C(=N\NC(=O)CN1c2c(-c3ccccc3)n[nH]c2-c2ccccc2S1(=O)=O)c1ccc(Br)s1 | - | RT activity | - | PBMC | - | EC90 | >100 µM |
| Cn1cc(NC(=O)Nc2cc(C(=O)Nc3cc(C(=O)Nc4cc(C(=O)Nc5ccc(S(=O)(=O)O)c6cc(S(=O)(=O)O)ccc56)n(C)c4)n(C)c3)n(C)c2)cc1C(=O)Nc1cc(C(=O)Nc2cc(C(=O)Nc3ccc(S(=O)(=O)O)c4cc(S(=O)(=O)O)ccc34)n(C)c2)n(C)c1 | RF | cytopathic effect / XTT | - | CEM + CEM-SS | - | EC50 | 0.2 µM |
| O=C(O)c1cc(C(=CCC23CC4CC(CC(C4)C2)C3)c2cc(Cl)c(O)c(C(=O)O)c2)cc(Cl)c1O | RF | cytopathic effect / XTT | - | CEM + CEM-SS | - | EC50 | >105 µM |
| CC(O)[C@@H]1CC(NC(=O)[C@H](OCc2ccccc2)[C@H](O)[C@@H](O)[C@@H](OCc2ccccc2)C(=O)N[C@H]2c3ccccc3C[C@H]2O)CO1 | - | cytopathic effect / XTT | - | MT-4 | - | EC50 | 6.1 µM |
| Cc1cn([C@H]2C[C@H](N=[N+]=[N-])[C@@H](CO)O2)c(=O)[nH]c1=O | SF162 | p24 / ELISA | - | PBMC | - | EC50 | 0.085 µM |
| Nc1ccc(C(=O)NC23CC4CC(CC(C4)C2)C3)cc1 | IIIB | syncytia | - | CEM | - | EC50 | >73.5 µM |
| CN1CCN(CCSc2nc(-c3cc4ccccc4s3)c3ccccc3n2)CC1 | LAV-1 | RT activity | - | PBMC | - | EC50 | 6.1 µM |
| C/C(=N\NC(=O)CN1c2c(-c3ccccc3)n[nH]c2-c2ccccc2S1(=O)=O)c1cc(C)sc1C | - | RT activity | - | PBMC | - | EC90 | >100 µM |
| O=C(NC12CC3CC(CC(C3)C1)C2)c1ccc([N+](=O)[O-])cc1 | IIIB | syncytia | - | CEM | - | EC50 | >66.2 µM |
| COc1ccnc2[nH]cc(C(=O)C(=O)N3CCC(=C(F)c4ccccc4)CC3)c12 | - | luciferase | - | HeLa | - | EC50 | <1 µM |
| COc1cc(-c2ccc(N=Nc3ccc4c(S(=O)(=O)O)cc(S(=O)(=O)O)c(N)c4c3O)c(OC)c2)ccc1N=Nc1ccc2c(S(=O)(=O)O)cc(S(=O)(=O)O)c(N)c2c1O | G762-3 | cytopathic effect / XTT | - | CEM + CEM-SS | - | EC50 | 2.5 µM |
| COc1ncc(OC)c2c(C(=O)C(=O)N3CCC(=C(C#N)c4ccsc4)CC3)c[nH]c12 | - | luciferase | - | HeLa | - | EC50 | <1 µM |
| CCN1C(=O)NC(=O)C(C(C)C)C1CC1CC(C)CC(C#N)C1=O | RF | p24 / ELISA | V82F/184V | C8166 | - | EC50 | 0.01209 µM |
| Cc1nnc(-c2cccc(-c3cccc(C(=O)N4CCCCC4)c3)c2)o1 | CNE8 | luminescence | - | TZM-bl | pseudotyped | EC50 | >30 µM |
| Cc1cccc(C)c1NC(=O)c1ccc([N+](=O)[O-])cc1 | IIIB | syncytia | - | CEM | - | EC50 | >29.3 µM |
| COc1cnc(-n2cnc(C)n2)c2[nH]cc(C(=O)C(=O)N3CCC(=C(c4ccccc4)c4cncc(CO)c4)CC3)c12 | - | luciferase | - | HeLa | - | EC50 | <1 µM |
| CN1CCN(S(=O)(=O)c2cc(F)ccc2CNC(=O)c2nc3n(c(=O)c2O)CCCOC32CCN(C(=O)OCc3ccccc3)CC2)CC1 | NL4-3 | luciferase / reporter gene | - | MT-2 | - | EC50 | 0.01–0.1 µM |
| COc1cnc(-n2ccc(C)n2)c2[nH]cc(C(=O)C(=O)N3CCC(=C(c4ccccc4)c4cnccn4)CC3)c12 | - | luciferase | - | HeLa | - | EC50 | <1 µM |
| O=C(NCc1ccc(F)cc1S(=O)(=O)N1CCOCC1)c1nc2n(c(=O)c1O)CCCOC21CCN(C(=O)OCc2ccccc2)CC1 | NL4-3 | luciferase / reporter gene | - | MT-2 | - | EC50 | 0.01–0.1 µM |
| CCCCCCCCCCCCCCOP(=O)(O)OCCC=C(c1cc(Cl)c(O)c(C(=O)O)c1)c1cc(Cl)c(O)c(C(=O)O)c1 | RF | cytopathic effect / XTT | - | CEM + CEM-SS | - | EC50 | >101 µM |
| O=C1c2ccccc2C(=O)N1C12CC3CC(CC(C3)C1)C2 | IIIB | syncytia | - | CEM | - | EC50 | >704 µM |
| C/C(=N\NC(=O)CN1c2c(-c3ccccc3)n[nH]c2-c2ccccc2S1(=O)=O)c1cc(Cl)sc1Cl | - | RT activity | - | PBMC | - | EC50 | 3.2 µM |
| COC(=O)C(=O)N1CCC2(CC1)OCCn1c2nc(C(=O)NCc2ccc(F)cc2-n2ncnc2C)c(O)c1=O | NL4-3 | luciferase / reporter gene | - | MT-2 | - | EC50 | 0.01–0.1 µM |
| COc1cnc(-n2ccc(C)n2)c2[nH]cc(C(=O)C(=O)N3CCC(=C(c4ccccc4)c4nccs4)CC3)c12 | - | luciferase | - | HeLa | - | EC50 | <1 µM |
| CN(C)CCSc1ccc(-c2cc(-c3ccc(SCCN(C)C)cc3)ncn2)cc1 | LAV-1 | RT activity | - | PBMC | - | EC50 | 3.6 µM |
| CC(C)[C@H](NC(=O)OCc1ccccn1)C(=O)N[C@@H](Cc1ccccc1)[C@@H](O)C[C@H](Cc1ccccc1)NC(=O)OCc1cccnc1 | NL4-3 | p24 | PR-L10R L63P | MT-4 | - | EC50 | <0.8 µM |
| Cn1cc(NC(=O)Nc2cc(C(=O)Nc3cc(C(=O)Nc4ccc(P(=O)(O)O)c5cc(P(=O)(O)O)ccc45)n(C)c3)n(C)c2)cc1C(=O)Nc1cc(C(=O)Nc2ccc(P(=O)(O)O)c3cc(P(=O)(O)O)ccc23)n(C)c1 | RF | cytopathic effect / XTT | - | CEM + CEM-SS | - | EC50 | 3.9 µM |

A second listing of 5 rows from above:

structure,strain,read by,changes,cell line,conditions,measure,result
CC(C)[C@H](NC(=O)OCc1ccccn1)C(=O)N[C@@H](Cc1ccccc1)[C@@H](O)C[C@H](Cc1ccccc1)NC(=O)OCc1cccnc1,NL4-3,p24,PR-L10R L63P,MT-4,-,EC50,<0.8 µM
CN1CCN(S(=O)(=O)c2cc(F)ccc2CNC(=O)c2nc3n(c(=O)c2O)CCCOC32CCN(C(=O)OCc3ccccc3)CC2)CC1,NL4-3,luciferase / reporter gene,-,MT-2,-,EC50,0.01–0.1 µM
O=C1c2ccccc2C(=O)N1C12CC3CC(CC(C3)C1)C2,IIIB,syncytia,-,CEM,-,EC50,>704 µM
COc1cnc(-n2ccc(C)n2)c2[nH]cc(C(=O)C(=O)N3CCC(=C(c4ccccc4)c4cnccn4)CC3)c12,-,luciferase,-,HeLa,-,EC50,<1 µM
CC(O)[C@@H]1CC(NC(=O)[C@H](OCc2ccccc2)[C@H](O)[C@@H](O)[C@@H](OCc2ccccc2)C(=O)N[C@H]2c3ccccc3C[C@H]2O)CO1,-,cytopathic effect / XTT,-,MT-4,-,EC50,6.1 µM